Publication PMC9320654, “Study on In Vitro Metabolism and In Vivo Pharmacokinetics of Beauvericin” (Toxins, 2022)

The chains behind the UniProt entries cited, without tags or fusion partners.
UniProt P11712, whole entry: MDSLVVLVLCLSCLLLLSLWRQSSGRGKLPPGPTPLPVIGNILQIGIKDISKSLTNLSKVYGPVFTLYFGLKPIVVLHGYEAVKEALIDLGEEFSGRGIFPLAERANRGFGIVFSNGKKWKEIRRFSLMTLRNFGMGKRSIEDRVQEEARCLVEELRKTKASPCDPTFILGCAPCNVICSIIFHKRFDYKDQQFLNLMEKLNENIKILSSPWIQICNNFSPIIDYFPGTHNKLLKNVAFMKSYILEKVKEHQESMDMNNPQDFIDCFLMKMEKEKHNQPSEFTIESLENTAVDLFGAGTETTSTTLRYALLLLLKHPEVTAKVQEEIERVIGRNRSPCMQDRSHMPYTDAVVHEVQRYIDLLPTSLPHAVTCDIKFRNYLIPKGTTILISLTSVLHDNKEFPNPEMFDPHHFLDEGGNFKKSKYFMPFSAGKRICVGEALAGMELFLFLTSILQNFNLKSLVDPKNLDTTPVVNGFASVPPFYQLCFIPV
UniProt P33261, whole entry: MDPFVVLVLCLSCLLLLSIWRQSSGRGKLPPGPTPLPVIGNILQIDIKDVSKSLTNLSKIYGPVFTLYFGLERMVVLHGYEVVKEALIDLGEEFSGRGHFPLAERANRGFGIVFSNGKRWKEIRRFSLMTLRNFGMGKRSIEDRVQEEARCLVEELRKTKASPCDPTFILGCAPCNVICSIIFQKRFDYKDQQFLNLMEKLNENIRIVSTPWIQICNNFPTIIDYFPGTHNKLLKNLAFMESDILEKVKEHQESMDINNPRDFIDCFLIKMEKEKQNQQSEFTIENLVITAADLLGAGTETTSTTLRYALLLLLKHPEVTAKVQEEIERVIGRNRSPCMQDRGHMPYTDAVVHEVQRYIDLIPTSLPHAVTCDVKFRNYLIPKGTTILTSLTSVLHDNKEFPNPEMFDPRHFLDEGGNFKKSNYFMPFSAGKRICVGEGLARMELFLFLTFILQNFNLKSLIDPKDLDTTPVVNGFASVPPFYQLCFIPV
UniProt P10635, whole entry: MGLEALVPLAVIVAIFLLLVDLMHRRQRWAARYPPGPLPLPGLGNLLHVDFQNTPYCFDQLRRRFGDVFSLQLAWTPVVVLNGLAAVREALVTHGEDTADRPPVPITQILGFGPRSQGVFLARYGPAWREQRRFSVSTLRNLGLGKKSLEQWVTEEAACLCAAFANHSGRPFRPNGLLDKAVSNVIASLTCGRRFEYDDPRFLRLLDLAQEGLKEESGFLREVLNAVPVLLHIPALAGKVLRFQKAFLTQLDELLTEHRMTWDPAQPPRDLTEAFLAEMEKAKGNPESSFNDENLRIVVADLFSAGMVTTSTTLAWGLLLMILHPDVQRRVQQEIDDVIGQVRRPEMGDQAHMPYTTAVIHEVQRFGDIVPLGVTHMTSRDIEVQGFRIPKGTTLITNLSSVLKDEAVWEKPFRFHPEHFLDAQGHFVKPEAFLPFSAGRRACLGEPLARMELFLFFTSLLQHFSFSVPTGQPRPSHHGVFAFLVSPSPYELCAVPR

Legend:
[1] = target: T1, CYP2C9 (Homo sapiens, UniProt P11712); assay type: in vitro ADME; details: HLMs
T1 construct: tissue Corning or Xenotech; host or cells: human liver microsomes (mixed gender)

[2] = Metabolic stability in cryopreserved hepatocytes, mouse; assay type: in vitro ADME, CD-1 mouse
Experimental: BEA (10 mM) was incubated in duplicate in a 96-well plate containing a suspension of mouse, rat, monkey, dog, or human hepatocytes (0.5 × 10^6 cells/mL) at 37 °C for 1.5 h in a controlled atmosphere (5% CO2, 95% humidified incubator). BEA and the control were prepared with 50 μL of DMSO and 450 μL of acetonitrile (ACN) to achieve a final concentration of 1 μM, and then spiked into each well of 96-well plates in duplicates. Samples were withdrawn from the reaction mixture at 0, 15, 30, 60, and 90 min and were quenched with stop solution (acetonitrile containing 200 ng/mL tolbutamide and 200 ng/mL labetalol as internal standards). A cocktail of 7-ethoxycoumarin (Lot#: I1825085) was used as the positive control for the assay. The analytical plates were sealed and stored at 4 °C until LC-MS/MS analysis. The data obtained from the BEA metabolic stability assays were used to calculate the intrinsic clearance and remaining percentages, as described in Table 4 and Figure 4.
The remaining percentages of test articles after incubation were calculated by the following equations:(7) %Remainingat Appointed Time=Peak Area Ratios of Test Article versus Internal Standard at Appointed Time/Peak Area Ratios of Test Article versus Internal Standard 0 min
We used the equation of first order kinetics to calculate T1/2 and CLint: […]

[3] = Metabolite identification by LC-UV-MS^n in mouse liver microsomes; assay type: in vitro ADME; set-up: key: +: metabolite was detected in liver microsomes; -: metabolite was detected in liver microsomes; details: BEA 10 µM, 37 °C, 60 min
Experimental: (§1) The objectives of this study were to search for and to identify the metabolites of BEA in liver microsomes from mice, rats, dogs, monkeys and humans by LC-UV-MS^n (n = 1~2) (based on peak intensity ≥ 1% of total drug related components), and to propose its metabolic pathways.
(§2) The test compound BEA at 10 µM was incubated with liver microsomes at 37 °C for 60 min. The positive control, 7-ethoxycoumarin (7-EC) at 10 µM, was run concurrently to assess Phase I metabolic activities in liver microsomes. […] After incubation, the samples were analyzed by LC-UV-MS (Table S7). The structures of the metabolites were proposed based on the interpretation of their MS and MS2 data. The results are presented in Table 6 and Figure 6. %Total=Peak Area of a Releted Component/Peak Area of Total Releted Component×100%

[4] = Metabolite identification by LC-UV-MS^n in monkey liver microsomes; assay type: in vitro ADME; set-up: key to Detected in liver microsomes: Monkey: +: metabolite was detected in liver microsomes; -: metabolite was not detected in liver microsomes
Experimental: as §1, §2

[5] = PK experiments in rats after intravenous or oral administration; assay type: in vivo, Sprague Dawley rat; details: rat, n = 3
Experimental: The PK of BEA were evaluated in cannulated male Sprague Dawley rats following an intravenous infusion (1 h) or oral dosing, with N = 3 for each route of administration. Sprague Dawley rats weighing 210 ± 10 g each were obtained from Vital River Laboratory Animal Technology Co., Ltd. (Beijing, China), and were used for pharmacokinetic assessment. All protocols involving animals were approved by the XBL-China Institutional Animal Care and Use Committee (IACUC No.2020-007). Animals were treated in accordance with the Animal Welfare Act and the “Guide for the Care and Use of Laboratory Animals” (NIH Publication 86-23, revised 1985). The animals were supplied with water and a commercial rodent diet ad libitum prior to study initiation. The rats were administered BEA as an intravenous infusion at a dose of 0.5 mg/kg and orally at a dose of 2 mg/kg, respectively. The animals were dosed via the appropriate route at time 0, and samples were collected at several time points up to 24 h following dose administration. Following intravenous infusion administration, blood samples were collected from the jugular vein cannula at predose as well as at 0.083, 0.25, 0.5, 1, 2, 4, 8, and 24 h postdose of BEA. Following oral dosing, blood samples were collected at predose as well as 0.25, 0.5, 1, 2, 4, 8, and 24 h postdose of BEA. The blood volume at each timepoint was 0.25 mL. Rat plasma samples were separated from the blood samples by centrifugation at 12,000 g for 15 min and stored in the freezer at −80 °C before analysis. Noncompartmental PK parameters such as area under the curve (AUC) and T1/2 were calculated using WinNonlin Professional (version 6.3, Pharsight, Sunnyvale, CA, USA). The absolute oral bioavailability of BEA in rats was calculated by the AUC(0−∞) ratio obtained following oral and i.v. administration. (12) F=AUC0−∞p.o./AUC0−∞i.v.×Dose i.v./Dose p.o.×100
Blood concentration–time curves obtained for each compound were analyzed by means of noncompartmental PK analysis with WinNonlin Professional (version 6.3, Pharsight, Sunnyvale, CA, USA). Following intravenous infusion or bolus administration, the elimination T1/2, total AUC, AUC0−t, systemic blood clearance, and steady-state volume of distribution were calculated using the appropriate noncompartmental model (constant infusion, bolus intravenous injection, and extravascular, respectively). Following oral dosing, Cmax, Tmax, AUC0−t, and AUC0−∞ were calculated. The PK parameters were determined with WinNonlin software using the linear up/log down method in which the linear trapezoidal rule was used any time that the concentration increased, and the logarithmic trapezoidal rule was used any time that the concentration decreased. The summarized PK parameters are reported as the mean ± standard deviation.

[6] = test system: rat plasma proteins
[7] = test system: mouse plasma proteins
[8] = test system: dog plasma proteins
[9] = target: T2, CYP2C19 (Homo sapiens, UniProt P33261); details: cited from earlier work
T2 construct: tissue Corning or Xenotech; host or cells: human liver microsomes (mixed gender)

[10] = Metabolic stability in liver microsomes, MLM; details: scaled from MLM CLint(mic)
[11] = target: CYP2D6 (Homo sapiens, UniProt P10635); assay: CYP inhibition evaluation in human liver microsomes, CYP2D6 (dextromethorphan); details: HLMs
[12] = dialysis 5 h, 37 °C, BEA 2 μM, warfarin 1 μM, n = 3

## Beauvericin
[1]
  CYP2C9 inhibitor class: weak inhibitor (IC50 > 10 μM—weak inhibitor)
[2]
  CLint (hep) (μL/min/10^6): 19.3 μL/min/10^6
[2]; 90 min
  Remaining % (T = 90 min): 41.7%
[3]
  Detected in liver microsomes: Mouse: +
[4]; BEA 10 µM, 37 °C, 60 min
  Detected in liver microsomes: Monkey: +
[4]; CLM
  Number of metabolites identified: Fifteen
[5]; i.v., 0.5 mg/kg
  AUC0−∞: 356.0 ± 66.7 ng·h/mL
  Cmax: 454.0 ± 110.0 ng/mL
  T1/2: 5.1 ± 2.6 h
  Vd: 5.9 ± 2.5 L/kg
[5]; p.o., 2 mg/kg
  AUC0−∞: 421.0 ± 61.4 ng·h/mL
  Cmax: 41.6 ± 0.6 ng/mL
  T1/2: 5.9 ± 0.6 h
  Tmax: 1.0 ± 0 h
[6]
  Fu (%), unbound fraction: 0.07%
[6]; [12]
  Bound Fraction (%): > 90% and 99.93 ± 2.90%
[7]
  Fu (%), unbound fraction: 0.06%
[7]; [12]
  Bound Fraction (%): > 90% and 99.94 ± 0.57%
[8]
  Fu (%), unbound fraction: 0.08%
[8]; [12]
  Bound Fraction (%): > 90% and 99.92 ± 2.91%
[9]; human liver microsomes
  Inhibition of mephenytoin 4′-hydroxylase (CYP2C19) activity: strongly inhibited; also recorded: strong inhibitor
[9]; ref 20 (Li Mei's group)
  Inhibition mechanism, CYP2C19: competitive
[10]
  CLint(liver): 446.2 mL/min/kg
[11]
  CYP2D6 inhibitor class: weak inhibitor (IC50 > 10 μM—weak inhibitor)

Values joined by “and” are separate entries in the source; they are usually repeats but may differ in a detail not shown here. Equal entries are not always repeated. “Also recorded” adds a separate entry of the source.
